Experimental data from patent US4835100A (priority 1986, dated 1989).

Test system: monoclonal antibody (2F5)
Assay type: binding, mouse

COc1cc2c(c3oc(=O)c4c(c13)CCC4=O)[C@@H]1C=CO[C@@H]1O2 [Aflatoxin B1, aflatoxin B1]
detection limit: 0.5 ng/mL
limit of detection: 25 pg/assay
